Measured values from several laboratories, pooled; numbers as filed in NIAID ChemDB.

Common to all: whole-cell or culture tests; agent: Hepatitis B virus

Lines come from different laboratories, so protocols vary.

structure	read by	cells	measure	strain	result
C#C[C@@H](NC(=O)C(=O)c1c(C)c(C(=O)Nc2ccc(F)c(C#N)c2)n(C)c1C)C1COC1	PCR	HepG2.2.15	EC50		0.001–0.0099 µM
CNS(=O)(=O)N1CCC[C@@H](NS(=O)(=O)c2cn(C)c(C(=O)Nc3cccc(C(F)(F)F)c3)c2F)C1	PCR	HepAD38 cells	EC50		<0.1 µM
C[C@@H](NC(=O)c1c2n(c(=O)n1-c1ccc(OC3CC3)cc1)CCN(C(=O)c1ccc(Br)c(Cl)c1)C2)c1cccc2nccnc12	PCR	HepG2.117	EC50		0.1–0.5 µM
CNC(=O)C(=O)N1C[C@H]2CSc3c(cn(C)c3C(=O)Nc3ccc(F)c(C)c3)S(=O)(=O)N[C@H]2C1	PCR	HepAD38	EC50		<0.5 µM
COc1cc(Nc2ncnc3ccc(-c4cccs4)cc23)ccc1N1CCOCC1	replicon	HUH 9B	EC50		<1 µM
O=C(CNC(=O)c1cccc(F)c1)Nc1ccc(Cl)nc1Cl	PCR	HepG2.2.15	EC50		>100 µM
C[C@]1(CO)O[C@@H](n2cc(F)c(=O)[nH]c2=O)[C@H](O)[C@@H]1O		HepG2.2.15	EC50		>10 µM
CC[C@]12CCC(C)(C)CC1[C@]1(CC(=O)O)CC[C@@]3(C)C4C[C@H](O)C(=O)O[C@H](C)[C@@]4(C)CCC3[C@@]1(C)CC2	ELISA / antigen	HepG2.2.15	EC50		15.2 µM
Cn1nc2cc(NS(=O)(=O)c3cnn(CC4CN(S(C)(=O)=O)C4)c3)ccc2c1C(=O)Nc1ccc(F)c(Cl)c1	PCR	HepAD38	EC50		>1000 µM
Nc1ccn([C@H]2CS[C@H](CO)O2)c(=O)n1		CEM	EC50		>5 µM
O=C(O)c1ccc(-c2ccc3ncnc(Nc4ccc(N5CCOCC5)cc4)c3c2)s1	replicon	HUH 9B	EC50		5–25 µM
CC(=O)Nc1cccc([C@@H](C)N2CCn3nc4c(c3C2=O)CN(C(=O)c2ccc(Cl)c(Cl)c2)[C@H](C)C4)c1	PCR	HepG2.117	EC50		0.015 µM
O=C(Nc1ccc(-c2nc3ccc(F)c(F)c3o2)cc1)C1CCOC1	antigen / luminescence	Primary human hepatocytes (PHH)	EC50		1.43 µg/mL
COc1ccc(CNC(=O)c2c3n(c(=O)n2-c2ccc(OCC(F)(F)F)cc2)CCN(C(=O)c2ccc(Br)c(Cl)c2)C3)c(C)c1	PCR	HepG2.117	EC50		0.1–0.5 µM
Nc1ccn([C@@H]2CS[C@H](CO)O2)c(=O)n1		HepAD38	EC90		0.3 µM
CCS(=O)(=O)N1CC2CC1CN2S(=O)(=O)c1cn(C)c(C(=O)Nc2ccc(F)c(F)c2)c1F	PCR	HepAD38 cells	EC50		0.3–1 µM
C[C@H](c1ccccc1)N1C[C@@H](O)Cn2c(c3n(c2=O)CCN(C(=O)c2ccc(Br)c(Cl)c2)C3)C1=O	PCR	HepG2.117	EC50		0.1–0.5 µM
C#C[C@H](C)NC(=O)C(=O)c1c(C)c(C(=O)Nc2ccc(F)c(C#N)c2)n(C)c1C	PCR	HepG2.2.15	EC50		0.001–0.0099 µM
Cc1cc(NC(=O)c2c3c(cn2C)S(=O)(=O)N[C@H]2CN(C(=O)C(=O)N[C@H](C)C(F)(F)F)C[C@@]2(O)CO3)ccc1F	PCR	HepAD38	EC50		<0.5 µM
CC(=O)Nc1cccc([C@H](C)N2CCn3nc4c(c3C2=O)CN(C(=O)c2ccc(Cl)c(C#N)c2)[C@H](C)C4)c1	PCR	HepG2.117	EC50		0.127 µM
CCOc1ccc(-n2c(C(=O)NCc3ccccc3)c3n(c2=O)CCN(C(=O)c2ccc(Cl)c(Cl)c2)C3)cc1	PCR	HepG2.117	EC50		0.5–5 µM
Cc1cc(NC(=O)c2c3c(cn2C)S(=O)(=O)N[C@H]2CN(C(=O)C(=O)NC4(C)CC4)C[C@H]2CO3)ccc1F	PCR	HepAD38	EC50		<0.5 µM
Cn1nc2cc(NS(=O)(=O)c3cnn(-c4ncccc4C4CC4)c3)ccc2c1C(=O)Nc1ccc(F)c(Cl)c1	PCR	HepAD38	EC50		100–1000 µM
CC(=O)Nc1ccc([C@@H](C)N2CCn3nc4c(c3C2=O)CN(C(=O)c2ccc(Cl)c(C(F)(F)F)c2)[C@H](C)C4)cc1	PCR		EC50		0.006 µM
O=C(c1ccc(Cl)c(Cl)c1)N1CCc2nn3c(c2C1)-c1nccn1CCC3	PCR	HepG2.117	EC50		0.265 µM
Cn1nc2cc(NS(=O)(=O)c3cnn(Cc4ccccn4)c3)ccc2c1C(=O)Nc1ccc(F)c(Cl)c1	PCR	HepAD38	EC50		100–1000 µM
C#C[C@@](C)(NC(=O)C(=O)c1c(C)c(C(=O)Nc2ccc(F)c(C#N)c2)n(C)c1C)C(F)(F)F	PCR	HepG2.2.15	EC50		0.001–0.0099 µM
COCCNC(=O)C(=O)N1CC[C@@H](NS(=O)(=O)c2cn(C)c(C(=O)Nc3ccc(F)c(F)c3)c2F)C1	PCR	HepAD38 cells	EC50		<0.1 µM
COc1ccc(C(=O)N(C)CC(=O)Nc2ccc(Cl)cc2Cl)cc1	PCR	HepG2.2.15	EC50		4.9 µM
Cn1nc2cc(NS(=O)(=O)NC3CC3)ccc2c1C(=O)Nc1ccc(F)c(Cl)c1	PCR	HepAD38	EC50		<100 µM
C#CC1(NC(=O)C(=O)c2c(C)c(C(=O)Nc3ccc(F)c(C(F)(F)F)c3)n(C)c2C)COC1	PCR	HepG2.2.15	EC50		<0.001 µM
C[C@H]1OC(=O)[C@@H](O)CC2[C@]3(C)CC[C@@]4(CC(=O)O)C5CC(C)(C)CC[C@]5(C)CC[C@]4(C)C3CC[C@@]21C	ELISA / antigen	HepG2.2.15	EC50		8 µM
COc1cccc(NC(=O)NCC(=O)Nc2ccc(Cl)nc2Cl)c1	PCR	HepG2.2.15	EC50		>100 µM
CNS(=O)(=O)c1ccc2c(C(=O)Nc3ccc(F)c(Cl)c3)n(C)nc2c1	PCR	HepAD38	EC50		100–1000 µM
C[C@@H]1Cn2c(c3n(c2=O)C[C@H](F)CN(Cc2ccccc2)C3=O)CN1C(=O)c1ccc(Br)c(Cl)c1	PCR	HepG2.117	EC50		0.1–0.5 µM
C=C(C)[C@H](CC)CC[C@@H](C)C1CCC2C3CC=C4C[C@@H](O)CC[C@]4(C)C3CC[C@@]21C	ELISA / antigen	HepG2.2.15	EC50		47.7 µM
c1coc(-c2ccc3ncnc(Nc4ccc(N5CCOCC5)cc4)c3c2)c1	replicon	HUH 9B	EC50		<1 µM
C[C@]1(CO)O[C@@H](n2cc(F)c(N)nc2=O)[C@H](O)[C@@H]1O		HepG2.2.15	EC50		>10 µM
COc1ccc(-n2c(C(=O)NCc3ccc(C(C)C)cc3)c3n(c2=O)CCN(C(=O)c2ccc(Br)c(Cl)c2)C3)cc1	PCR	HepG2.117	EC50		0.1–0.5 µM
C[C@@H]1Cc2nn3c(c2CN1C(=O)c1ccc(Cl)c(C#N)c1)C(=O)N([C@@H](C)c1ccc(S(F)(F)(F)(F)F)cc1)CC3	PCR	HepG2.117	EC50		0.065 µM
C[C@H]1C(O)CCC2[C@]3(C)CC[C@@]4(C)C5CC(C)(C)CC[C@]5(C)CC[C@]4(C)C3CC[C@@]21C	ELISA / antigen	HepG2.2.15	EC50		88.5 µM
C[C@]1(CO)O[C@@H](n2ccc(N)nc2=O)[C@H](O)[C@@H]1O		HepG2.2.15	EC50		>10 µM
c1csc(-c2ccc3ncnc(Nc4ccc(N5CCOCC5)cc4)c3c2)n1	replicon	HUH 9B	EC50		<1 µM
C[C@@]12C(=O)N(CCO)C(=O)[C@]1(C)C1CCC2O1	PCR	HepG2.2.15	EC50		0.0192 µM
Cn1ccc(S(=O)(=O)Nc2ccc3c(C(=O)Nc4ccc(F)c(Cl)c4)n(C)nc3c2)n1	PCR	HepAD38	EC50		<100 µM
C[C@@H](NC(=O)C(=O)N1C[C@H]2COc3c(cn(C)c3C(=O)Nc3ccc(F)c(C(F)F)c3)S(=O)(=O)N[C@H]2C1)C(F)(F)F	PCR	HepAD38	EC50		<0.5 µM
Cn1nc2cc(NS(=O)(=O)c3cnn(CCc4ccccc4)c3)ccc2c1C(=O)Nc1ccc(F)c(Cl)c1	PCR	HepAD38	EC50		100–1000 µM
CC(C)(C)OC(=O)NCc1cccc(-c2ccc3ncnc(Nc4ccc(N5CCOCC5)cc4)c3c2)c1	replicon	HUH 9B	EC50		1–5 µM
O=C(NCc1ccccc1)c1c2n(c(=O)n1-c1ccc(N3CCCC3=O)cc1)CCN(C(=O)c1ccc(Br)c(Cl)c1)C2	PCR	HepG2.117	EC50		0.1–0.5 µM
C[C@@]12C(=O)N(CCc3ccc(O)cc3)C(=O)[C@]1(C)C1CCC2O1	PCR	HepG2.2.15	EC50		0.066 µM
CC1(C)CN(c2ccc(-n3c(C(=O)NCc4ccccc4)c4n(c3=O)CCN(C(=O)c3ccc(Br)c(Cl)c3)C4)cc2)CCO1	PCR	HepG2.117	EC50		0.1–0.5 µM
Cn1nc2cc(NS(=O)(=O)c3cnn(CC(=O)O)c3)ccc2c1C(=O)Nc1ccc(F)c(Cl)c1	PCR	HepAD38	EC50		>1000 µM
CCNC(=O)C(=O)N1CCC(NS(=O)(=O)c2c(C)c(C(=O)Nc3cc(F)c(F)c(F)c3)n3c2CCC3)CC1	PCR	HepAD38 cells	EC50		0.3–1 µM
CN(C)Cc1ccc(-c2ccc3ncnc(Nc4ccc(N5CCOCC5)cc4)c3c2)o1	replicon	HUH 9B	EC50		1–5 µM
CN(CC(=O)Nc1ccc(Cl)cc1Cl)C(=O)c1ccccn1	PCR	HepG2.2.15	EC50		39 µM
C=C(C)[C@@H](CC)CC[C@@H](C)[C@H]1CCC2C3C[C@@H](O)[C@@]4(O)C[C@@H](O)CC[C@]4(C)C3CC[C@@]21C	ELISA / antigen	HepG2.2.15	EC50		21.8 µM
Cc1c(C(=O)C(=O)NC(C)(C)c2nccs2)c(C)n(C)c1C(=O)Nc1ccc(F)c(C#N)c1	PCR	HepG2.2.15	EC50		0.001–0.0099 µM
Cc1cc(NC(=O)c2c3c(cn2C)S(=O)(=O)N[C@H]2CN(C(=O)C(=O)N[C@H](C)C(F)(F)F)C[C@H]2CO3)ccc1F	PCR	HepG2	EC50	Genotype D	0.00094 µM
N#Cc1ccc(-c2nc(Nc3ccc(N4CCOCC4)cc3)c3ccccc3n2)cc1	replicon	HUH 9B	EC50		1–5 µM
C=C[C@@](CO)(NC(=O)C(=O)c1c(C)c(C(=O)Nc2ccc(F)c(C(F)(F)F)c2)n(C)c1C)C(F)(F)F	PCR	HepG2.2.15	EC50		0.001–0.0099 µM
Cc1cc(NC(=O)c2c3c(cn2C)S(=O)(=O)N[C@H]2CN(C(=O)C(=O)N[C@H](C)C(F)(F)F)C[C@@]2(C)CO3)ccc1F	PCR	HepAD38	EC50		<0.5 µM

Again, the opening 4 rows:

{"structure": "C#C[C@@H](NC(=O)C(=O)c1c(C)c(C(=O)Nc2ccc(F)c(C#N)c2)n(C)c1C)C1COC1", "read by": "PCR", "cells": "HepG2.2.15", "measure": "EC50", "result": "0.001–0.0099 µM"}
{"structure": "CNS(=O)(=O)N1CCC[C@@H](NS(=O)(=O)c2cn(C)c(C(=O)Nc3cccc(C(F)(F)F)c3)c2F)C1", "read by": "PCR", "cells": "HepAD38 cells", "measure": "EC50", "result": "<0.1 µM"}
{"structure": "C[C@@H](NC(=O)c1c2n(c(=O)n1-c1ccc(OC3CC3)cc1)CCN(C(=O)c1ccc(Br)c(Cl)c1)C2)c1cccc2nccnc12", "read by": "PCR", "cells": "HepG2.117", "measure": "EC50", "result": "0.1–0.5 µM"}
{"structure": "CNC(=O)C(=O)N1C[C@H]2CSc3c(cn(C)c3C(=O)Nc3ccc(F)c(C)c3)S(=O)(=O)N[C@H]2C1", "read by": "PCR", "cells": "HepAD38", "measure": "EC50", "result": "<0.5 µM"}

ECn is the concentration giving n% inhibition of infection, replication or growth. Blank or dashed fields: not listed here. Two numbers with a dash give a range or band.